Results of unrelated studies side by side (data: NIAID ChemDB).

All rows: tests on isolated targets; agent: Candida albicans

Rows are shuffled and stem from different studies. ICn is the concentration giving n% inhibition. Blank or dashed fields: not listed here.

smiles | read-out | strain or isolate | protein | result
CCCCC/C=C\C/C=C/CC/C=C/[C@H]1C[C@H]([C@](O)(CC(=O)O[C@@H](C(=O)O)[C@H](CC(=O)O)C(=O)O)C(=O)O)C(=O)O1 | IC50 |  | Geranylgeranyltransferase I | 5 µM
CC(C)[C@@H](NC(=O)c1cc(=O)c2ccccc2[nH]1)C(=O)N[C@@H](Cc1ccccc1)C[C@@H](O)[C@H](Cc1ccccc1)NC(=O)[C@H](NC(=O)c1cc(=O)c2ccccc2[nH]1)C(C)C | IC50 | H12 | Aspartic protease SAP2 | 12 µM
CN(C)Cc1ccc(C2CCC(N(C)C(=O)c3ccc(Cl)cc3)CC2)cc1 | IC50 |  | Oxidosqualene cyclase | 0.1 µM
NC(=O)[C@@H](Cc1cnc[nH]1)NC(=O)[C@@H](Cc1cccc2ccccc12)NC(=O)C1c2ccccc2Oc2ccccc21 | IC50 |  | Geranylgeranyltransferase | <3 µM
CC(=O)c1ccc(OCC(=O)N[C@@H](Cc2ccccc2)C[C@@H](O)[C@H](Cc2ccccc2)NC(=O)COc2ccc(C(C)=O)cc2)cc1 | IC50 | H12 | Aspartic protease SAP2 | 12 µM
O=C(NCCNCc1ccc2ccccc2c1)c1ccc2sc(NC(=O)C3CCCCC3)nc2c1 | IC50 |  | N-myristoyltransferase | 6.8 µM
C=C(C)[C@@H]1CC[C@]2(C(=O)O)CC[C@]3(C)[C@H](CC[C@@H]4[C@@]5(C)CC[C@H](O)C(C)(C)[C@@H]5CC[C@]43C)[C@@H]12 | IC50 |  | Aspartic protease | 6.5 µg/mL
O=Cc1ccc(OCC(=O)N[C@@H](Cc2ccccc2)C[C@H](O)[C@H](Cc2ccccc2)NC(=O)COc2ccc(C=O)cc2)cc1 | IC50 | H12 | Aspartic protease SAP2 | 5 µM
CCC(C)CC(C)CCCCCCCCC(=O)N[C@H]1C[C@@H](O)[C@@H](O)NC(=O)[C@@H]2[C@@H](O)CCN2C(=O)[C@H]([C@H](O)CCN(CC#N)CC#N)NC(=O)[C@H]([C@H](O)Cc2ccc(O)cc2)NC(=O)[C@@H]2C[C@@H](O)CN2C(=O)[C@H]([C@@H](C)O)NC1=O | IC50 | MY1055 | Glucan synthase | >0.2 µM
Cn1c(NC(=O)C2CCCCC2)nc2ccc(C(=O)NCCNCc3ccc4ccccc4c3)cc21 | IC50 |  | N-myristoyltransferase | >10 µM
Cc1cccc(C)c1OCC(=O)N[C@@H](Cc1ccccc1)C[C@H](O)[C@H](Cc1ccccc1)NC(=O)[C@H](NC(=O)c1cc(=O)c2ccccc2[nH]1)C(C)C | IC50 |  | Secreted aspartic protease | 140 µM
COc1ccc(C2CC(c3cc4ccccc4o3)=NN2c2ccc([N+](=O)[O-])cc2)cc1 | IC50 |  | Geranylgeranyl-protein transferase I | 0.06 µM
CCC(C)CC(C)CCCCCCCCC(=O)N[C@H]1C[C@@H](O)[C@@H](O)NC(=O)[C@@H]2[C@@H](O)CCN2C(=O)[C@H]([C@H](O)CCN=CNN)NC(=O)[C@H]([C@H](O)Cc2ccc(O)cc2)NC(=O)[C@@H]2C[C@@H](O)CN2C(=O)[C@H]([C@@H](C)O)NC1=O | IC50 | MY1055 | Glucan synthase | 0.007 µM
Nc1ncc(OCCc2ccc(OCc3ccccc3)cc2)c(N)n1 | IC50 |  | Dihydrofolate reductase | 26.07 µM
O=C([O-])c1c(F)c(F)cc(F)c1F | Ki | Nce103 | Beta-carbonic anhydrase | 61.6 µM
O=C(NCCNCc1ccc2ccccc2c1)c1ccc2oc(NC(=O)C3CCCCC3)nc2c1 | IC50 |  | N-myristoyltransferase | 1.1 µM
CC(C)[C@@H](NC(=O)c1cc(=O)c2ccccc2[nH]1)C(=O)N[C@@H](Cc1ccccc1)C[C@@H](O)[C@H](Cc1ccccc1)NC(=O)[C@H](NC(=O)c1cc(=O)c2ccccc2[nH]1)C(C)C | IC50 |  | Secreted aspartic protease | 12 µM
Cc1cccc(C)c1OCC(=O)N[C@@H](Cc1ccccc1)C[C@H](O)[C@H](Cc1ccccc1)NC(=O)COc1c(C)cccc1C | IC50 | H12 | Aspartic protease SAP2 | 50 µM
CCOC(=O)c1oc2cccc(OC[C@H](O)CNC(C)(C)C)c2c1C | IC50 | CY1002 | N-myristoyltransferase | 150 µM
Nc1ncc(OCCc2ccccc2)c(N)n1 | IC50 |  | Dihydrofolate reductase | 1.237 µM
COC(=O)N[C@@H](CCCN=C(N)N)C(=O)NC(=O)CCCc1cc(-c2cc3ccccc3cn2)n(-c2ccc3ccccc3c2)n1 | IC50 |  | Farnesyl-protein transferase | 78 µM
CCOC(=O)c1oc2cccc(OCCCNCc3cccnc3)c2c1C | IC50 |  | N-myristoyltransferase | 0.1 µM
Nc1ncc(OCCc2ccc(Cl)c(Cl)c2)c(N)n1 | IC50 |  | Dihydrofolate reductase | 3.719 µM
CCOC(=O)c1oc2cccc(OC[C@@H](O)CNC(C)(C)C)c2c1C | IC50 | CY1002 | N-myristoyltransferase | 1.1 µM
COC(=O)C(CCSC)NC(=O)C1(Cc2ccccc2C)CCN(C(=O)[C@@H](N)CS)CC1 | IC50 |  | Geranylgeranyl-protein transferase I | 0.08 µM
Cc1cc(C)c2nc(-c3ccc(Br)cc3)cc(C(=O)O)c2c1 | IC50 |  | Prolyl-tRNA synthetase | 0.14 µM
CC(=CCC/C=C(\C)CCC=C(C)CCCN(C)C)CC/C=C(\C)CCC1OC1(C)C | IC50 |  | Oxidosqualene cyclase (microsomal) | 8 µM
CC(C)=CCc1c(O)cc(O)c2oc3cc(O)cc(O)c3c(=O)c12 | IC50 |  | Aspartic protease | 15 µg/mL
CN(C)C(=O)c1ccc2nc(NC(=O)CC3CCC[C@@H](NCc4ccc5ccccc5c4)C3)sc2c1 | IC50 |  | N-myristoyltransferase | 0.011 µM
Cc1cccc(C)c1OCC(=O)N[C@@H](Cc1ccccc1)C[C@@H](O)[C@H](Cc1ccccc1)NC(=O)[C@H](NC(=O)c1cc(=O)c2ccccc2[nH]1)[C@H](C)O | IC50 | H12 | Aspartic protease SAP2 | 120 µM

The last 4 rows once more:

smiles | read-out | strain or isolate | protein | result
CC(=CCC/C=C(\C)CCC=C(C)CCCN(C)C)CC/C=C(\C)CCC1OC1(C)C | IC50 |  | Oxidosqualene cyclase (microsomal) | 8 µM
CC(C)=CCc1c(O)cc(O)c2oc3cc(O)cc(O)c3c(=O)c12 | IC50 |  | Aspartic protease | 15 µg/mL
CN(C)C(=O)c1ccc2nc(NC(=O)CC3CCC[C@@H](NCc4ccc5ccccc5c4)C3)sc2c1 | IC50 |  | N-myristoyltransferase | 0.011 µM
Cc1cccc(C)c1OCC(=O)N[C@@H](Cc1ccccc1)C[C@@H](O)[C@H](Cc1ccccc1)NC(=O)[C@H](NC(=O)c1cc(=O)c2ccccc2[nH]1)[C@H](C)O | IC50 | H12 | Aspartic protease SAP2 | 120 µM